From PMC12148371 (iScience, 2025)

Target: EBOV-GP-RBD without the glycan cap and MLD, displayed on the cell surface (EGPdcm, wild type) (Zaire ebolavirus)

Substance: human soluble CD4-183 (sCD4-183) two-domain protein (domain or fragment)
- percent NPC1 binding left with 20 μM sCD4: 20.1%
